Taken from: PubChem BioAssay AID624099 (ICCB-Longwood, 2012)
Aim: 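Human genes that papillomavirus E2 requires to repress the HPV18 LCR promoter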 (primary screen). Cells: human C33A cervical carcinoma cells (HPV-negative) stably expressing BPV1 E2 and an HPV18 LCR luciferase reporter. Reagents: siRNA pool against human genes, 40 nM. Timing: 72 h. Detection: 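Per-well luciferase luminescence, z-scored on each plate against the plate mean and SD with control wells left out, then averaged across three replicate plates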. Reading the numbers: mean z-score and z-score: higher = stronger reporter signal, weaker E2 silencing. Hit rule: 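Mean z ≥ 2 together with z ≥ 2 in two or more of the three replicates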.
In all, the deposit lists about 21,000 reagents; this is a random part of them. 497 of all reagents (2.4%) count as active. 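Higher z means weaker E2 silencing; only reporter increases were scored, and knock-downs that hurt cell survival may mask genuine repressor factors.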

How did the screen score CEMIP?
mean z-score: -0.21; z-score, replicate A: -0.35; z-score, replicate B: -0.06; z-score, replicate C: -0.23; Call: inactive

What did the screen give for RAD18?
mean z-score: -0.74; z-score, replicate A: -0.83; z-score, replicate B: -0.83; z-score, replicate C: -0.56; Call: inactive

What is on record for PMPCB?
mean z-score: 0.64; z-score, replicate A: 0.59; z-score, replicate B: 0.78; z-score, replicate C: 0.56; Call: inactive

For CDK2AP2P3, how do the results read?
mean z-score: 2.96; z-score, replicate A: 3.04; z-score, replicate B: 2.82; z-score, replicate C: 3.01; Call: active

Which result is listed for WDR76?
mean z-score: -0.24; z-score, replicate A: -0.37; z-score, replicate B: -0.34; z-score, replicate C: -0.01; Call: inactive

For MIGA2, what was measured?
mean z-score: -0.97; z-score, replicate A: -1.18; z-score, replicate B: -0.79; z-score, replicate C: -0.93; Call: inactive

With POTEG, how do the results read?
mean z-score: -0.25; z-score, replicate A: -0.82; z-score, replicate B: 0.31; z-score, replicate C: -0.25; Call: inactive

Which result is listed for FSTL1?
mean z-score: 0.22; z-score, replicate A: -0.03; z-score, replicate B: 0.23; z-score, replicate C: 0.46; Call: inactive

With ADTRP, what does the deposit list?
mean z-score: -0.52; z-score, replicate A: -0.35; z-score, replicate B: -0.3; z-score, replicate C: -0.9; Call: inactive

Which result is listed for BOLA1?
mean z-score: 0.98; z-score, replicate A: 1.42; z-score, replicate B: 0.89; z-score, replicate C: 0.61; Call: inactive

With LRFN4, what was measured?
mean z-score: 0.36; z-score, replicate A: 0.38; z-score, replicate B: 0.52; z-score, replicate C: 0.2; Call: inactive

How did the screen score SLC16A3?
mean z-score: -1.12; z-score, replicate A: -1.09; z-score, replicate B: -1.23; z-score, replicate C: -1.04; Call: inactive

For LOC402521 (retired record), what does the deposit list?
mean z-score: 1.21; z-score, replicate A: 1.43; z-score, replicate B: 1.1; z-score, replicate C: 1.11; Call: inactive

With GPCPD1, what was measured?
mean z-score: 1.3; z-score, replicate A: 0.77; z-score, replicate B: 1.44; z-score, replicate C: 1.68; Call: inactive

For MAU2, what does the deposit list?
mean z-score: 0.46; z-score, replicate A: 0.2; z-score, replicate B: 0.54; z-score, replicate C: 0.62; Call: inactive

What is on record for UBALD1?
mean z-score: -0.13; z-score, replicate A: -0.29; z-score, replicate B: -0.29; z-score, replicate C: 0.19; Call: inactive

With P3H1, how do the results read?
mean z-score: -0.33; z-score, replicate A: -0.46; z-score, replicate B: -0.53; z-score, replicate C: 0.01; Call: inactive

With RUNX1T1, how do the results read?
mean z-score: 0.99; z-score, replicate A: 1.14; z-score, replicate B: 0.77; z-score, replicate C: 1.06; Call: inactive

Which result is listed for MIMS2?
mean z-score: -1.24; z-score, replicate A: -1.42; z-score, replicate B: -0.91; z-score, replicate C: -1.39; Call: inactive

For TSLP, what was measured?
mean z-score: 1.1; z-score, replicate A: 0.5; z-score, replicate B: 1.23; z-score, replicate C: 1.56; Call: inactive

What is on record for IGHV5-78?
mean z-score: -1.53; z-score, replicate A: -1.58; z-score, replicate B: -1.67; z-score, replicate C: -1.36; Call: inactive

With BZW1, how do the results read?
mean z-score: -0.02; z-score, replicate A: -0.12; z-score, replicate B: -0.09; z-score, replicate C: 0.16; Call: inactive

For A1CF, what was measured?
mean z-score: 0.5; z-score, replicate A: 0.71; z-score, replicate B: 0.35; z-score, replicate C: 0.44; Call: inactive

What is on record for KRT12?
mean z-score: 0.35; z-score, replicate A: 0.55; z-score, replicate B: 0.29; z-score, replicate C: 0.2; Call: inactive

With MARVELD3, what does the deposit list?
mean z-score: 1.21; z-score, replicate A: 1.26; z-score, replicate B: 0.69; z-score, replicate C: 1.67; Call: inactive

With UBOX5, what does the deposit list?
mean z-score: 0.58; z-score, replicate A: 0.73; z-score, replicate B: 0.54; z-score, replicate C: 0.47; Call: inactive

What is on record for PIP5K1B?
mean z-score: -0.7; z-score, replicate A: -0.73; z-score, replicate B: -1.28; z-score, replicate C: -0.08; Call: inactive

Part of the list above, reduced to “z-score, replicate B”.
A1CF = 0.35
KRT12 = 0.29
MARVELD3 = 0.69
UBOX5 = 0.54
